Results of unrelated studies side by side (data: NIAID ChemDB).

All rows: tests in culture; species: Candida albicans

Neighbouring rows are from separate reports.

SMILES | endpoint | read by | setting | strain or isolate | result
Cc1ccnc(C(N)=Nc2ccc(-c3ccc(-c4ccc(N=C(N)c5cc(C)ccn5)cc4C)o3)c(C)c2)c1 | MIC | - | - | - | ≤1 µg/mL
O=c1[nH]c(O)c(N=Nc2nc3ccccc3[nH]2)c(=O)[nH]1 | MIC | agar | - | - | <0.016 µg/mL
CC(C)=CCN=C(N)NCCCCCCCCCNCCCCCCCNC(N)=NCC=C(C)C | MIC50 | - | - | 4T | 80 µM
CCCC(C)(C)C(=O)OC1CCN(CC(O)(Cn2cncn2)c2ccc(F)cc2F)CC1 | MIC80 | broth dilution | - | Y0109 | 0.036 µM
N=C(N)c1ccc(Oc2ccc(/C=C/c3cc4cc(C(=N)N)ccc4o3)cc2)cc1 | MIC | - | - | - | >60 µg/mL
CCOC(=O)C1C(=O)C=C(c2ccc(Br)cc2)CC1c1ccc(C2CC(c3ccc(Br)cc3)=CC(=O)C2C(=O)OCC)cc1 | MIC | - | - | Clinical isolate | 12.5 µg/mL
Cc1ccc2c(c1)c1nnc(N3CCN(C)CC3)nc1n2C | MIC | - | - | C316 | 2 µg/mL
COCc1ccc(O)c(N=Nc2nc3ccccc3[nH]2)c1 | MIC | agar | - | - | <0.016 µg/mL
NC(=NC1CCCC1)c1ccc(-c2ccc(-c3ccc(C(N)=NC4CCCC4)cc3)o2)cc1 | Geometric mean MIC | - | - | 21 strains | 14.18 µg/mL
COc1cc2c(cc1OC)-c1cc3ccc(OC)c(OC)c3c[n+]1CC2 | MIC | - | - | ATCC28838 | >500 µg/mL
CCCC(=O)OC1CCN(CC(O)(Cn2cncn2)c2ccc(F)cc2F)CC1 | MIC80 | broth dilution | - | Y0109 | 0.153 µM
CCC(C)CC(C)CCCCCCCCC(=O)N[C@H]1C[C@@H](O)[C@H](NCCN)NC(=O)[C@@H]2[C@@H](O)CCN2C(=O)[C@H]([C@H](O)CCN)NC(=O)[C@H]([C@H](O)[C@@H](O)c2ccc(O)cc2)NC(=O)[C@@H]2C[C@@H](O)CN2C(=O)[C@H]([C@@H](C)O)NC1=O | MIC90 | - | - | 733 strains | 0.5 µg/mL
CCC(C)n1ncn(-c2ccc(N3CCN(c4ccc(OC[C@H]5CO[C@](Cn6cncn6)(c6ccc(Cl)cc6Cl)O5)cc4)CC3)cc2)c1=O | MIC | - | - | Isolate 95-145 | 0.25 µg/mL
CCOC(=O)c1nc(NC(=O)c2nc(NC(=O)c3cc([N+](=O)[O-])cn3C)cn2C)cn1C | MIC80 | broth dilution | - | Y0109 (drug-susceptible) | >200 µg/mL
C(=C/c1cccnc1)/C1=NCCS1 | MIC | - | - | - | 11 µg/mL
C/C=C/c1ccc(OC(=O)/C(C)=C/C)cc1 | EC50 | - | - | ATCC 90028 | >50 µg/mL
Nc1ccc(C(=O)Nc2ccccc2O)cc1 | MIC | - | - | - | 25 µg/mL
O=C1C(O)C2(c3ccccc3)SCCCN12 | MIC | - | - | SH/T54 | 53.19 µM
N#Cc1n[nH]c2nc3ccccc3n2c1=O | MIC | agar | - | - | <0.016 µg/mL
O=C1C(OS(=O)(=O)c2ccc([N+](=O)[O-])cc2)C(c2ccccc2)N1c1ccccc1 | MIC | - | - | SH/T54 | 14.08 µM
CCOC(=O)C1C(=O)C=C(c2ccc(C)cc2)CC1c1ccc(C2CC(c3ccc(C)cc3)=CC(=O)C2C(=O)OCC)cc1 | MIC | - | - | Clinical isolate | 25 µg/mL
Cl.N=C(N)c1ccc2oc(CCc3cc4cc(C(=N)N)ccc4o3)cc2c1 | MIC | - | - | - | 3 µg/mL
C/C=C(/C)C(=O)Oc1ccc(OC)cc1C1OC1C | EC50 | - | - | ATCC 90028 | >50 µg/mL
N=C(N)c1ccc(N/N=C/c2cc3cc(C(=N)N)ccc3o2)cc1 | MIC | - | - | - | 30 µg/mL
C[C@@H](c1nc(-c2ccc(C#N)cc2)cs1)[C@](O)(Cn1cnnc1)c1ccc(F)cc1F | MIC90 | - | - | 660 isolates | 0.03 µg/mL
C(=C/c1ccccc1)/C1=NCCS1 | MIC | - | - | - | 3 µg/mL
C=C1CC[C@@H](C)[C@H]2[C@@H](C[C@H]3[C@@H]4CC=C5C[C@@H](O)CC[C@]5(C)[C@H]4CC[C@]23C)OC1=O | MIC80 | - | - | - | 23 µg/mL
OC(Cn1cncn1)(Cn1cncn1)c1ccc(F)cc1F | MIC | - | - | ATCC 90028 | 3.1 µM
Clc1ccccc1C(c1ccccc1)(c1ccccc1)n1ccnc1 | MIC | broth dilution | pH 7 | 10 isolates | 0.03 µg/mL
O=C(Cc1ccc(Br)cc1)Nc1cc(Cl)ccc1O | MIC | - | - | - | 25 µg/mL
CC(=O)N1CCN(c2ccc(OC[C@H]3CO[C@](Cn4ccnc4)(c4ccc(Cl)cc4Cl)O3)cc2)CC1 | MIC | - | - | 2005E | <0.001 µg/mL
C(=C/c1ccccn1)/C1=NCCS1 | MIC | - | - | - | 5 µg/mL
Cc1[nH]n(-c2ccccc2)c(=O)c1N=Nc1nc2ccccc2[nH]1 | MIC | agar | - | - | <0.016 µg/mL
COc1ccc(N2C(=O)C(OC(C)=O)C2c2ccccc2)cc1 | MIC | - | - | SH/T54 | 322 µM
CC(=O)O[C@H]1C[C@@]2(C)[C@@H](C[C@@H](O)[C@H]3[C@@]4(C)CC[C@@H](O)[C@@H](C)[C@@H]4CC[C@@]32C)/C1=C(\CCC=C(C)C)C(=O)O | EC50 | agar diffusion / agar | - | - | >100 µg/mL
O=C(/C=C/c1cccc([N+](=O)[O-])c1)OC1CCN(CC(O)(Cn2cncn2)c2ccc(F)cc2F)CC1 | MIC80 | broth dilution | - | Y0109 | 0.122 µM
CCOC(=O)C1C(=O)C=C(c2ccccc2)CC1c1ccc(C2CC(c3ccccc3)=CC(=O)C2C(=O)OCC)cc1 | MIC | - | - | Clinical isolate | 12.5 µg/mL
O=[N+]([O-])c1ccc2oc(-c3ccc(Cl)cc3)nc2c1 | MIC | - | - | - | 12.5 µg/mL
COC1=CC(=O)c2c(O)c(C)c(CC(C)=O)c(O)c2C1=O | MIC | - | - | - | 40 µg/mL
CCC(C)CC(C)CCCCCCCCC(=O)N[C@H]1C[C@@H](O)[C@H](NCCN)NC(=O)[C@@H]2[C@@H](O)CCN2C(=O)[C@H]([C@H](O)CCN)NC(=O)[C@H]([C@H](O)[C@@H](O)c2ccc(O)cc2)NC(=O)[C@@H]2C[C@@H](O)CN2C(=O)[C@H]([C@@H](C)O)NC1=O | MIC90 | - | - | 50 isolates | 0.4 µg/mL
CN[C@@H]1[C@H](O[C@@H]2O[C@H](CO)[C@@H](O)[C@H](S(=O)(=O)O)[C@H]2O)[C@@H](O)[C@H](O[C@H]2c3cc(C)c(C(=O)N[C@H](C)C(=O)O)c(O)c3-c3c(cc4c(c3O)C(=O)c3cc(OC)cc(O)c3C4=O)[C@@H]2O)O[C@@H]1C | MIC | - | - | 8302-14 | 25 µg/mL
O=C(Nc1cc([N+](=O)[O-])ccc1O)c1ccc(Cl)cc1 | MIC | - | - | - | 25 µg/mL
COc1cc(O)c2c(c1)C(=O)c1c(cc3c(c1O)-c1c(cc(C)c(C(=O)NC(CO)C(=O)O)c1O)[C@H](OC1OC(C)C(O)C(OC4OCC(O)C(O)C4O)C1O)C3O)C2=O | MIC90 | - | - | 97 isolates | 4 µg/mL
COc1ccc(/C=C\C2=NCCS2)cc1OC | MIC | - | - | - | >128 µg/mL
O=C(/C=C/c1ccccc1Cl)OC1CCN(CC(O)(Cn2cncn2)c2ccc(F)cc2F)CC1 | MIC80 | broth dilution | - | Y0109 | 0.124 µM
Nc1[nH]c(=O)ncc1F | MIC | broth dilution | pH 7 | 15 isolates | 0.125 µg/mL
O=C1C(OS(=O)(=O)c2ccc(Br)cc2)C(c2ccccc2)N1c1ccccc1 | MIC | - | - | SH/T54 | 13.08 µM
CCC(C)n1ncn(-c2ccc(N3CCN(c4ccc(OC[C@H]5CO[C@](Cn6cncn6)(c6ccc(Cl)cc6Cl)O5)cc4)CC3)cc2)c1=O | MIC50 | - | - | 1992 isolates | 0.03 µg/mL
C[C@@H](c1ncncc1F)[C@](O)(Cn1cncn1)c1ccc(F)cc1F | MIC80 | broth dilution | - | Y0109 | 0.011 µM
COC(=O)c1ccc(N2C(=O)C(OC(C)=O)C2c2ccc(OC)cc2)cc1 | MIC | - | - | SH/T54 | 16.26 µM
N=C(N)c1ccc(-c2ccc(-c3ccc(C(=N)N)cc3)[nH]2)cc1 | MIC | - | - | - | 10 µg/mL
COc1ccc(/C=C/C(=O)OC2CCN(CC(O)(Cn3cncn3)c3ccc(F)cc3F)CC2)cc1 | MIC80 | broth dilution | - | Y0109 | 0.031 µM
O=c1[nH]c(=S)[nH]c(O)c1N=Nc1nc2ccccc2[nH]1 | MIC | agar | - | - | <0.016 µg/mL
CC[C@@H]([C@H](C)O)n1ncn(-c2ccc(N3CCN(c4ccc(OC[C@@H]5CO[C@@](Cn6cncn6)(c6ccc(F)cc6F)C5)cc4)CC3)cc2)c1=O | MIC | broth dilution | pH 6 | 10 isolates | 0.03 µg/mL
Clc1ccc(COC(Cn2ccnc2)c2ccc(Cl)cc2Cl)c(Cl)c1 | MIC | - | - | ATCC28838 | 6.25 µg/mL
COC1=CC(=O)C[C@@](C)(O)[C@H]1O | MIC | - | - | - | >400 µg/mL
C(=C/c1cc2ccccc2o1)/C1=NCCS1 | MIC | - | - | - | 52 µg/mL

The first 6 rows once more:

Cc1ccnc(C(N)=Nc2ccc(-c3ccc(-c4ccc(N=C(N)c5cc(C)ccn5)cc4C)o3)c(C)c2)c1 ; endpoint: MIC ; result: ≤1 µg/mL
O=c1[nH]c(O)c(N=Nc2nc3ccccc3[nH]2)c(=O)[nH]1 ; endpoint: MIC ; read by: agar ; result: <0.016 µg/mL
CC(C)=CCN=C(N)NCCCCCCCCCNCCCCCCCNC(N)=NCC=C(C)C ; endpoint: MIC50 ; strain or isolate: 4T ; result: 80 µM
CCCC(C)(C)C(=O)OC1CCN(CC(O)(Cn2cncn2)c2ccc(F)cc2F)CC1 ; endpoint: MIC80 ; read by: broth dilution ; strain or isolate: Y0109 ; result: 0.036 µM
N=C(N)c1ccc(Oc2ccc(/C=C/c3cc4cc(C(=N)N)ccc4o3)cc2)cc1 ; endpoint: MIC ; result: >60 µg/mL
CCOC(=O)C1C(=O)C=C(c2ccc(Br)cc2)CC1c1ccc(C2CC(c3ccc(Br)cc3)=CC(=O)C2C(=O)OCC)cc1 ; endpoint: MIC ; strain or isolate: Clinical isolate ; result: 12.5 µg/mL

An empty or dashed field is not shown. A number after MIC or MFC names an inhibition level or a share of isolates. ECn is the concentration giving n% inhibition of infection, replication or growth.